Experimental data taken from article PMC6746850, “Identification and Molecular Characterization of Superoxide Dismutases Isolated From A Scuticociliate Parasite: Physiological Role in Oxidative Stress” (Scientific Reports, 2019).

Sequences of proteins named here, by UniProt entry; tags and fusion partners are left off. Residues count along the entry.
UniProt A0A481XSU7, 22-249 limits assumed: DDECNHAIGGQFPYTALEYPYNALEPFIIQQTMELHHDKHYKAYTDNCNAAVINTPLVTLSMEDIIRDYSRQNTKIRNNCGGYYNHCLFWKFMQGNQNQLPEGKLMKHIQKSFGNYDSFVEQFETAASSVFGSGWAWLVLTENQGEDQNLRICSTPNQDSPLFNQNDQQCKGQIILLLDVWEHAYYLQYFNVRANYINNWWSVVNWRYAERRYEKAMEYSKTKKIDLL

Biological target: Pd-Fe-SOD (FSD) (Philasterides dicentrarchi, UniProt A0A481XSU7)
Test: SOD activity staining (NBT) in native PAGE
Type: biochemical
Conditions: 100 μM inhibitor; anion-exchange fraction P2 (methods also describe 30 min treatment of live ciliates before lysis)

[N-]=[N+]=N
complete inhibition at 100 μM: both NaN3 and RESV produced complete inhibition of the activity of SOD enzymes
